# Tested on: resting CD4+ T cells spinoculated with VSVG-pseudotyped R8Δenv/K103N HIV
# Format: cell-based, human
substance,measurement,value
N-Hydroxy-N′-phenyl octanediamide [SAHA],"induction of HIV expression, percentage of cells induced, compared with TSA, apicidin and VPA",most effective inducer of HIV expression

# From patent US20100324034A1 (priority 2007, published 2010)
